Source: US7192981B2, “3,4-dihydroxyhydrocinnamic acid derivative” (Bionutrigen Co., Ltd., priority 2005, dated 2007)

System: isolated rat epididymal adipocytes
Experiment: Glucose transport assay (2-DOG uptake)
Type: cell-based
Settings: PAO 1 μM added 10 min before DHH105 500 μM, 4 h

## O=[As]c1ccccc1 (stereo not shown)
  effect on glucose transport induced by DHH105: completely abolished
